Pooled drug test results. Numbers come from NIAID ChemDB, via PubChem.

Common to all: tests in culture; species: Rhinovirus; read-out: EC50

Lines come from different laboratories, so protocols vary.

SMILES,strain,cell line,read by,result
CN(C)c1nc(C(F)(F)F)nc2c1ncn2Cc1ccccc1,Serotype 2,M-HELA,plaque count,>8 µM
Cc1cc(CCCCCOc2c(Cl)cc(C3=NCCO3)cc2Cl)on1,TYPE 5,HeLa,plaque count,>6.2 µg/mL
CN(C)c1nc(C(F)(F)F)nc2c1ncn2Cc1ccc(C(F)(F)F)cc1,Serotype 2,M-HELA,plaque count,>4 µM
CCO/N=C/c1ccc(OCCC2CCN(c3ccc(Cl)nn3)CC2)cc1,FO2-2547 (ICAM-1 receptor group 70),KB,neutral red,>7.474 µM
CN(C)c1nc(C(F)(F)F)nc2c1ncn2Cc1ccc(Cl)cc1Cl,Serotype 14,M-HELA,plaque count,>8 µM
CSc1nsc(-c2ccc(OS(=O)(=O)c3ccc(C)cc3)cc2)c1C#N,Serotype 63 (group B),HELA-OHIO,cytopathic effect,>25 µM
Fc1cccc(Cn2cnc3c(Nc4cccc(F)c4)nc(C(F)(F)F)nc32)c1,Serotype 1A,M-HELA,plaque count,1.3 µM
Cc1cc(CCCOc2c(C)cc(-c3noc(C(F)(F)F)n3)cc2C)on1,Isolate 6,OHIO HELA-I,cytopathic effect / visual reading,0.1 µg/mL
CSc1nsc(-c2ccc(OCCCCOc3ccc([N+](=O)[O-])cc3)cc2)c1C#N,Serotype 2 (group B),HELA-OHIO,cytopathic effect,>0.5 µM
CCn1c2c(c(=O)c3cc(C(C)C)ccc31)C(=NOC)c1ccccc1-2,TYPE 1A/E28,HELA-OHIO,cytopathic effect,>10 µg/mL
CCOC(=O)c1ccc(OCCCOc2ccc(-c3snc(SC)c3C#N)cc2)cc1,Serotype 51 (group B),HELA-OHIO,cytopathic effect,>2 µM
Cc1c(-c2ccccc2)n(-c2cccc(F)c2)c2ccc(C(C)C)cc2c1=O,21/47,HELA-OHIO,cytopathic effect,0.048 µg/mL
CSc1nsc(-c2ccc(OCCCCOc3ccc(C#N)cc3)cc2)c1C#N,Serotype 9 (group B),HELA-OHIO,cytopathic effect,>2 µM
CSc1nsc(-c2ccc(OCc3ccccc3)cc2)c1C#N,Serotype 14 (group A),HELA-OHIO,cytopathic effect,25 µM
CN(C)c1nc(C(F)(F)F)nc2c1ncn2Cc1ccc([N+](=O)[O-])cc1,Serotype 3,M-HELA,plaque count,>8 µM
CSc1nsc(-c2ccc(OCCCOc3ccc(C#N)cc3)cc2)c1C#N,Serotype 39 (group B),HELA-OHIO,cytopathic effect,>2 µM
Fc1cccc(Nc2nc(C(F)(F)F)nc3c2ncn3Cc2ccccc2F)c1,Serotype 4,M-HELA,plaque count,>20 µM
CSc1nsc(-c2ccc(OCCCOc3ccc([N+](=O)[O-])cc3)cc2)c1C#N,Serotype 72 (group A),HELA-OHIO,cytopathic effect,>1 µM
CN(C)c1nc(C(F)(F)F)nc2c1ncn2Cc1ccccc1Cl,Serotype 31,M-HELA,plaque count,>8 µM
CSc1nsc(-c2ccccc2)c1C#N,Serotype 2 (group B),HELA-OHIO,cytopathic effect,>80 µM
N#Cc1ccc(Cn2cnc3c(Nc4cccc(F)c4)nc(C(F)(F)F)nc32)cc1,Serotype 2,M-HELA,plaque count,68 µM
CCn1c2c(c(=O)c3cc(C(C)C)ccc31)Cc1ccccc1-2,3 (FEB),HELA-OHIO,cytopathic effect,2.9 µg/mL
CN(C)c1nc(C(F)(F)F)nc2c1ncn2Cc1ccc(Cl)c(NC=O)c1,Serotype 2,M-HELA,plaque count,>8 µM
CSc1nsc(-c2ccc(OCCCCOc3ccccc3)cc2)c1C#N,Serotype 14 (group A),HELA-OHIO,cytopathic effect,2.37 µM
Cc1c(-c2ccccc2)n(-c2ccc(F)cc2)c2ccc(C(C)C)cc2c1=O,39/209,HELA-OHIO,cytopathic effect,0.018 µg/mL
CSc1ccc(Cn2cnc3c(N(C)C)nc(C(F)(F)F)nc32)cc1,Serotype 21,M-HELA,plaque count,>8 µM
CSc1nsc(-c2ccc(OCc3ccccc3)cc2)c1C#N,Serotype 2 (group B),HELA-OHIO,cytopathic effect,20 µM

The last 4 rows once more:

CSc1nsc(-c2ccc(OCCCCOc3ccccc3)cc2)c1C#N ; strain: Serotype 14 (group A) ; cell line: HELA-OHIO ; read by: cytopathic effect ; result: 2.37 µM
Cc1c(-c2ccccc2)n(-c2ccc(F)cc2)c2ccc(C(C)C)cc2c1=O ; strain: 39/209 ; cell line: HELA-OHIO ; read by: cytopathic effect ; result: 0.018 µg/mL
CSc1ccc(Cn2cnc3c(N(C)C)nc(C(F)(F)F)nc32)cc1 ; strain: Serotype 21 ; cell line: M-HELA ; read by: plaque count ; result: >8 µM
CSc1nsc(-c2ccc(OCc3ccccc3)cc2)c1C#N ; strain: Serotype 2 (group B) ; cell line: HELA-OHIO ; read by: cytopathic effect ; result: 20 µM

ECn: concentration that inhibits the pathogen or its effect by n%.